Results of unrelated studies side by side (data: NIAID ChemDB).

Shared fields: growth or infection tests; species: HIV-1

ECn: concentration that inhibits the pathogen or its effect by n%. Blank or dashed fields: not listed here. a–b is a range or a potency band. Conditions beyond the fields shown may differ between rows.

compound | method | strain | cells | conditions | mutations | measure | value
c1ccc(COc2ccccc2)cc1 | syncytia | IIIB | C8166 |  |  | EC50 | 57.99 µg/mL
S=c1[nH]c(=S)c2c3c(sc2[nH]1)CCCCC3 | absorbance |  | CEM |  |  | EC50 | >5.25 µM
Clc1ccc(-c2nnc3ssc4nnc(-c5ccc(Cl)cc5)n4n23)cc1 |  | IIIB | MT-4 |  |  | EC50 | >100 µM
Cc1cn(C/C=C\COCP(=O)(O)O)c(=O)[nH]c1=O |  |  | MT-4 |  |  | EC50 | >100 µM
CN(C)S(=O)(=O)N1CCC2(CC1)OCCn1c2nc(C(=O)NCc2ccc(F)cc2-n2cncn2)c(O)c1=O | luciferase / reporter gene | NL4-3 | MT-2 |  |  | EC50 | 0.001–0.01 µM
CC(C)CCC[C@@H](C)[C@H]1CC[C@H]2[C@@H]3CC[C@H]4C[C@@H](CCC=C(c5cc(Cl)c(OCc6ccc(C(=O)O)cc6)c(C(=O)O)c5)c5cc(Cl)c(OCc6ccc(C(=O)O)cc6)c(C(=O)O)c5)CC[C@]4(C)[C@H]3CC[C@]12C | cytopathic effect / XTT | RF | CEM + CEM-SS |  |  | EC50 | 0.8 µM
CCCCCCCCCCCC(=O)NCC(COP(=O)([O-])OCC[N+](C)(C)C)OCCCCCCCCCC | plaque count / syncytia |  | CEM + CEM-SS |  |  | EC50 | 0.14 µM
COc1cc(C(=O)C(C)c2ccc(O)c(OC)c2)ccc1O | MTT | IIIB | C8166 |  |  | EC50 | 87.1 µg/mL
Cc1ccc(-c2nnc3sc(C(N)CC(C)C)nn23)cc1 |  | IIIB | MT-4 |  |  | EC50 | >100 µM
COC(=O)C12CC3CC(C1)CC(N1C(=O)c4ccccc4C1=O)(C3)C2 | syncytia | IIIB | CEM |  |  | EC50 | >20 µg/mL
CC(C)c1ccc(CS(=O)(=O)c2cccc[n+]2[O-])cc1 | cytopathic effect / MTT | IIIB | C8166 |  |  | EC50 | >40 µg/mL
CC(C)(C)[Si](C)(C)O[C@H]1[C@H](CO)O[C@@H](n2ccc(N)nc2=O)C1(F)F | RT activity | LAV | PBMC |  |  | EC50 | >100 µM
O=C(NCc1ccc2c(c1)[C@H](O)[C@@H](O)c1cc(CNC(=O)OCc3ccccc3)ccc1C2=O)OCc1ccccc1 | syncytia |  | PBL |  |  | EC50 | 10 µM
O=C(O)/C(O)=C/c1cccc(OCc2ccccc2)n1 | cytopathic effect / MTT | IIIB | MT-4 |  |  | EC50 | >74 µM
COc1ccc(-c2nnc3sc(C(CC(C)C)N4C(=O)c5ccccc5C4=O)nn23)cc1 |  | IIIB | MT-4 |  |  | EC50 | >100 µM
Cc1c(OC(=O)CCCCOc2ccc(C[C@H](NC(=O)OC(C)(C)C)C(=O)O)cc2)cccc1C(=O)N[C@@H](CSc1ccccc1)[C@H](O)CN1C[C@H]2CCCC[C@H]2C[C@H]1C(=O)NC(C)(C)C | RT activity | LAI | CEM |  |  | EC50 | 0.029 µM
O=C1c2ccccc2C(=O)N1CC12CC3CC(CC(C3)C1)C2 | syncytia | IIIB | CEM |  |  | EC50 | >4 µg/mL
C/C(=C/CC[C@@H](C)C(=O)C1C[C@@]2(C)[C@@H]3CC[C@H]4C(C)(C)C(=O)CC[C@]4(C)C3=C[C@@]2(O)[C@]1(C)O)C(=O)O | syncytia |  |  |  |  | EC50 | 47.91 µg/mL
CC(C)(C)NC(=O)[C@@H]1CN(Cc2cccnc2)CCN1C[C@H](C[C@@H](Cc1ccccc1)C(=O)N[C@H]1c2ccccc2C[C@H]1O)OC(=O)NCCCCOc1ccc(C[C@H](N)C(=O)O)cc1 | RT activity | LAI | CEM |  |  | EC50 | 6.4 µM
O=S(=O)(Cc1ccccc1I)c1cccc[n+]1[O-] | syncytia | IIIB | CEM |  | RT-K103N | EC50 | 9 µg/mL
O=[N+]([O-])c1ccc(OCc2ccccc2)cc1 | syncytia | IIIB | C8166 |  |  | EC50 | 53.26 µg/mL
O=C(O)/C(O)=C/c1cc(CCc2ccccc2)ccn1 | cytopathic effect / MTT | IIIB | MT-4 |  |  | EC50 | >74 µM
Nn1c(-c2ccc(Cl)cc2)n[nH]c1=S |  | NNRTI-resistant N119 | MT-4 |  | RT-Y181C | EC50 | >100 µM
CC(C)(C)NC(=O)[C@@H]1CN(Cc2cccnc2)CCN1C[C@H](C[C@@H](Cc1ccccc1)C(=O)N[C@H]1c2ccccc2C[C@H]1OC(=O)CCCCOc1ccc(C[C@H](N)C(=O)O)cc1)OC(=O)CCCCOc1ccc(C[C@H](N)C(=O)O)cc1 | RT activity | LAI | CEM |  |  | EC50 | 0.81 µM
O=C(NCc1ccc(F)cc1N1CCCCS1(=O)=O)c1nc2n(c(=O)c1O)CCCOC21CCN(C(=O)OCc2ccccc2)CC1 | luciferase / reporter gene | NL4-3 | MT-2 |  |  | EC50 | 0.001–0.01 µM
Cc1cc(C)c(CS(=O)c2cccc[n+]2[O-])c(C)c1 |  | IIIB | CEM |  |  | EC50 | <40 µg/mL
O=C1c2ccccc2C(=O)N1[C@@H]1CC2CC3CC(C2)C1C3 | syncytia | IIIB | CEM |  |  | EC50 | >4 µg/mL
COc1cc([C@H]2OC[C@H]3[C@@H]2CO[C@H]3c2cc(OC)c(O)c(OC)c2)cc(OC)c1O | MTT | IIIB | C8166 |  |  | EC50 | >200 µg/mL
NC(=NCCCCCCN=C(N)/N=C(\N)N1CCN(c2cc3c(cc2F)c(=O)c(C(=O)O)cn3C2CC2)CC1)/N=C(\N)N1CCN(c2cc3c(cc2F)c(=O)c(C(=O)O)cn3C2CC2)CC1 | XTT | IIIB | CEM-SS |  |  | EC50 | 12 µg/mL
CCOP(=O)(CO[C@@H]1C=C[C@H](n2cnc3c(N)ncnc32)C1(F)F)OCC | cytopathic effect |  | MT-4 |  |  | EC50 | 87.8 µM
Cc1ccc(F)cc1S(=O)(=O)N1CCC2(CC1)OCCn1c2nc(C(=O)NCc2ccc(F)cc2)c(O)c1=O | luciferase / reporter gene | NL4-3 | MT-2 |  |  | EC50 | 0.001–0.01 µM
Nc1ccn([C@@H]2C[C@@H](F)[C@H](CO)O2)c(=O)n1 | RT activity | LAV | PBM |  |  | EC50 | >100 µM
O=C1NC23CC4CC(C2)C2C(C4)C3C2(O)c2ccccc21 | syncytia | IIIB | CEM |  |  | EC50 | >20 µg/mL
Clc1ccc(OCc2ccccc2)cc1 | syncytia | IIIB | C8166 |  |  | EC50 | 11.53 µg/mL
C#C[C@]1(COC(=O)C(CCCCCC)CCCCCCCC)O[C@@H](n2cnc3c(N)nc(F)nc32)C[C@@H]1O |  | NL4-3 | U373-CD4-CXCR4 | pseudotyped | M184V | EC50 | 0.176 µM
Cc1ccc(F)cc1S(=O)(=O)N1CCC2(CC1)OCCn1c2nc(C(=O)NCc2ccc(F)cc2-n2cncn2)c(O)c1=O | luciferase / reporter gene | NL4-3 | MT-2 |  |  | EC50 | 0.001–0.01 µM
O=C(O)/C(O)=C/c1ccc(Oc2ccccc2)cn1 | cytopathic effect / MTT | IIIB | MT-4 |  |  | EC50 | >78 µM
CC(C)(C)[Si](C)(C)O[C@H]1[C@H](CO)O[C@H](n2ccc(N)nc2=O)C1(F)F | RT activity | LAV | PBMC |  |  | EC50 | >100 µM
CN(C)CCONc1c2cc(Cl)ccc2nc(=S)c2ccccc12 | syncytia | LAV | H9 |  |  | EC50 | 1.5 µM
Cc1ccc(C)n1-c1ccc(C(=O)O)c(O)c1 | p24 | 92US657 R5 CLADE B | PBMC + MT-2 |  |  | EC90 | 126.7 µM
Nc1nc2c(ncn2[C@@H]2C[C@@H](F)[C@H](CO)O2)c(=O)[nH]1 | RT activity | LAV | PBM |  |  | EC50 | >51.3 µM
O=C(NCCO)c1c(O)c2ncc(Cc3ccc(F)cc3)cc2n(-c2ccc(F)cc2)c1=O | RT activity | BaL | PBMC |  |  | EC50 | 0.0027 µM
Cc1c(OC(=O)CCCCOc2ccc(C[C@H](N)C(=O)O)cc2)cccc1C(=O)N[C@@H](CSc1ccccc1)[C@H](O)CN1C[C@H]2CCCC[C@H]2C[C@H]1C(=O)NC(C)(C)C | cytopathic effect / MTT | IIIB | MT-4 |  |  | EC50 | 0.193 µM
C/C=C(\C)C(=O)c1c(O)c2c(c3c(-c4ccccc4)cc(=O)oc13)OC(C)(C)C=C2 | cytopathic effect | RF | CEM + CEM-SS |  |  | EC50 | 4 µg/mL
O=C(O)/C(O)=C/c1ncccc1OCc1ccccc1 | cytopathic effect / MTT | IIIB | MT-4 |  |  | EC50 | >147 µM
Nn1c(S[C@@H]2O[C@H](CO)[C@@H](O)[C@H](O)[C@H]2O)nnc1-c1ccc(Cl)cc1 |  | NNRTI-resistant N119 | MT-4 |  | RT-Y181C | EC50 | >100 µM
Nc1ncnc2c1ncn2C/C=C\CO |  |  | MT-4 |  |  | EC50 | >100 µM
O=C1c2ccccc2C(=O)N1[C@H]1CC2CC3CC(C2)C1C3 | syncytia | IIIB | CEM |  |  | EC50 | >4 µg/mL
CC(C)=CCC[C@]1(C)C=Cc2c(ccc3c2C(=O)C(=O)C=C3O)O1 | cytopathic effect / XTT | RF | MT-4 |  |  | EC50 | >50 µM
COc1cc(C[C@H]2CO[C@H](c3ccc(O[C@@H]4O[C@H](O)[C@@H](O)[C@H](O)[C@H]4O)c(OC)c3)[C@H]2CO)ccc1O | MTT | IIIB | C8166 |  |  | EC50 | >200 µg/mL
C#C[C@]1(COC(=O)C(C)(C)C(F)(F)F)O[C@@H](n2cnc3c(N)nc(F)nc32)C[C@@H]1O |  | NL4-3 | U373-CD4-CXCR4 | pseudotyped | M184V | EC50 | 0.09 µM
Cc1ncnn1-c1cc(F)ccc1CNC(=O)c1nc2n(c(=O)c1O)CCCOC21CCN(C(=O)N(C)C)CC1 | luciferase / reporter gene | NL4-3 | MT-2 |  |  | EC50 | 0.001–0.01 µM
C#C[C@]1(COC(=O)CCCCCCCCCCCCCCCC)O[C@@H](n2cnc3c(N)nc(F)nc32)C[C@@H]1O |  | NL4-3 | U373-CD4-CXCR4 | pseudotyped | M184V | EC50 | 0.026 µM
CC(C)(C)NC(=O)[C@@H]1C[C@@H]2CCCC[C@@H]2CN1C[C@@H](OC(=O)NCCCCOc1ccc(C[C@H](N)C(=O)O)cc1)[C@H](Cc1ccccc1)NC(=O)[C@H](CC(N)=O)NC(=O)c1ccc2ccccc2n1 | RT activity | LAI | CEM |  |  | EC50 | 2.3 µM
C#C[C@]1(COC(=O)CCCCCCCC)O[C@@H](n2cnc3c(N)nc(F)nc32)C[C@@H]1O |  | NL4-3 | U373-CD4-CXCR4 | pseudotyped | M184V | EC50 | 0.013 µM
Cc1cc(/C(O)=C/c2cc(CCc3ccccc3)ncn2)no1 | cytopathic effect / MTT | IIIB | MT-4 |  |  | EC50 | 23 µM
COc1ccc(COc2ccccc2)cc1 | syncytia | IIIB | C8166 |  |  | EC50 | 18.14 µg/mL
Nc1ncnc2c1ncn2[C@H]1O[C@@H](CO)[C@H](O)C1(F)F | RT activity | LAV | PBMC |  |  | EC50 | 3.4 µM
O/C(=C\c1cc(CCc2ccccc2)ncn1)c1ncccn1 | cytopathic effect / MTT | IIIB | MT-4 |  |  | EC50 | >12.5 µg/mL
NC12CC3CC(CC(C3)C1C(=O)c1ccccc1C(=O)O)C2 | syncytia | IIIB | CEM |  |  | EC50 | >100 µg/mL
COc1cc(C[C@H]2CO[C@H](c3ccc(O[C@@H]4O[C@H](COC(C)=O)[C@@H](O)[C@H](O)[C@H]4O)c(OC)c3)[C@H]2CO)ccc1O | MTT | IIIB | C8166 |  |  | EC50 | >200 µg/mL
CCCCCCCCCCCCOC(CNC(=O)CCCCCCCCCCC)COP(=O)([O-])OCC[N+](C)(C)C | plaque count / syncytia |  | CEM + CEM-SS |  |  | EC50 | 0.11 µM
O/C(=C\c1cc(CCc2ccccc2)ncn1)c1ccncc1 | cytopathic effect / MTT | IIIB | MT-4 |  |  | EC50 | >12.5 µg/mL
CC(C)C[C@H](NC(=O)OC(C)(C)C)C(=O)O[C@@H]1Cc2ccccc2[C@@H]1NC(=O)[C@H](Cc1ccccc1)C[C@H](O)CN1CCN(Cc2cccnc2)C[C@H]1C(=O)NC(C)(C)C | RT activity | LAI | CEM |  |  | EC50 | 0.685 µM
Nc1nc2c(ncn2C/C=C\COCP(=O)(O)O)c(=O)[nH]1 |  |  | PBL |  |  | EC50 | >100 µM
CC(C)(C)C(=O)SCCOP(=O)(CO[C@@H]1C=C[C@H](n2cnc3c(N)ncnc32)C1(F)F)OCCSC(=O)C(C)(C)C | cytopathic effect |  | MT-4 |  |  | EC50 | 10.8 µM

The last 7 rows once more:

compound | method | strain | cells | conditions | mutations | measure | value
NC12CC3CC(CC(C3)C1C(=O)c1ccccc1C(=O)O)C2 | syncytia | IIIB | CEM |  |  | EC50 | >100 µg/mL
COc1cc(C[C@H]2CO[C@H](c3ccc(O[C@@H]4O[C@H](COC(C)=O)[C@@H](O)[C@H](O)[C@H]4O)c(OC)c3)[C@H]2CO)ccc1O | MTT | IIIB | C8166 |  |  | EC50 | >200 µg/mL
CCCCCCCCCCCCOC(CNC(=O)CCCCCCCCCCC)COP(=O)([O-])OCC[N+](C)(C)C | plaque count / syncytia |  | CEM + CEM-SS |  |  | EC50 | 0.11 µM
O/C(=C\c1cc(CCc2ccccc2)ncn1)c1ccncc1 | cytopathic effect / MTT | IIIB | MT-4 |  |  | EC50 | >12.5 µg/mL
CC(C)C[C@H](NC(=O)OC(C)(C)C)C(=O)O[C@@H]1Cc2ccccc2[C@@H]1NC(=O)[C@H](Cc1ccccc1)C[C@H](O)CN1CCN(Cc2cccnc2)C[C@H]1C(=O)NC(C)(C)C | RT activity | LAI | CEM |  |  | EC50 | 0.685 µM
Nc1nc2c(ncn2C/C=C\COCP(=O)(O)O)c(=O)[nH]1 |  |  | PBL |  |  | EC50 | >100 µM
CC(C)(C)C(=O)SCCOP(=O)(CO[C@@H]1C=C[C@H](n2cnc3c(N)ncnc32)C1(F)F)OCCSC(=O)C(C)(C)C | cytopathic effect |  | MT-4 |  |  | EC50 | 10.8 µM